Measurements from publication PMC8406192.

System: Nc1ncnc2c1ncn2[C@@H]1O[C@H](COP(=O)(O)OP(=O)(O)OP(=O)(O)O)[C@@H](O)[C@H]1O
Experiment: purified protein
Details: 20 mM Tris-HCl pH 7.5, 150 mM NaCl, 2 mM MgCl2, 15.7 nM dimer, 25°C, turnover per MMOB1670 subunit, no azide

dimer (unit complex) of F1-like ATPase, M. mobile gliding machinery (Mycoplasma mobile 163K)
Km: 74 µM
kcat: 0.18 molecules/s
